Measured values from several laboratories, pooled; numbers as filed in NIAID ChemDB.

Common to all: growth or infection tests; species: Mycobacterium tuberculosis

MIC bound comes from a single tested concentration.

SMILES | strain | changes | method | conditions | read-out | dose | result
CC(C)CN1C(=O)C(=O)c2cccc(-c3ccccc3)c21 | H37Rv |  |  |  | MIC |  | ≤20 µg/mL
COC(=O)C1[C@@H](OC(=O)CC(CCCCCCCCCCC(C)C)OC(=O)CC(C)CC(=O)OC2OC(C)C(OC)C(OC)C2OC)CN(C)C([C@@H](OC2O[C@H](CN)[C@@H](O)[C@H]2O)C2OC(n3ccc(=O)[nH]c3=O)[C@H](O)[C@@H]2O)C(=O)N1C | H37Rv |  |  |  | MIC |  | 6.25 µg/mL
O=C(NCc1ccc(N2CCN(Cc3ccccc3)CC2)nc1)c1ccc([N+](=O)[O-])o1 | UT29 |  |  |  | MIC |  | 0.024 µg/mL
COc1ccc2nc(-c3nc4ncccc4n3C)sc2c1 | H37Rv |  |  |  | MIC |  | 6.2 µg/mL
Clc1ccc(C(Cn2ccnc2)OCc2ccc(-c3ccccc3)cc2)c(Cl)c1 | CIP103471 |  |  |  | MIC |  | 4 µg/mL
CCCN(C(=O)COc1cc2c(O)c3c(O)c(C)c4c(c13)C(=O)[C@@](C)(O/C=C/[C@H](OC)[C@@H](C)[C@@H](OC(C)=O)[C@H](C)[C@H](O)[C@H](C)[C@@H](O)[C@@H](C)/C=C/C=C(/C)C(=O)N2)O4)N(C)C |  |  |  |  | EC50 |  | 0.15 µg/mL
Nc1cc(O)c(C(=O)O)cc1F | H37Rv | Ciprofloxacin-resistant | resazurin |  | MIC90 |  | 6.25 µg/mL
COc1ccc2cc1Oc1cc(ccc1OC)CCC(O)CCCC2 | H37Rv |  | broth dilution |  | MIC |  | >200 µg/mL
CCN(CCCCCN1C(=O)C(=O)c2cc(C3CCCCC3)ccc21)Cc1ccccc1 | H37Ra |  |  |  | MIC |  | ≤20 µg/mL
CC1CN(/N=C/c2ccc([N+](=O)[O-])o2)C(=O)O1 | H37Rv |  | BACTEC |  | MIC |  | ≥12.5 µg/mL
CC1COc2c(N3CCN(C)CC3)c(F)cc3c(=O)c(C(=O)O)cn1c23 | H37Rv |  |  |  | MIC |  | 0.75 µg/mL
CO[C@H]1/C=C/O[C@@]2(C)Oc3c(C)c(O)c4c(O)c(cc(OCC(=O)NNc5ccccc5)c4c3C2=O)NC(=O)/C(C)=C\C=C\[C@H](C)[C@H](O)[C@@H](C)[C@@H](O)[C@@H](C)[C@H](OC(C)=O)[C@@H]1C |  |  |  |  | EC50 |  | 0.037 µg/mL
CC(C)(C)c1ncc(CCCN=C(N)N)[nH]c1=O | ETA-R |  |  |  | MIC |  | 1.6 µg/mL
CO[C@H]1/C=C/O[C@@]2(C)Oc3c(C)c(O)c4c(O)c(c(/C=N/N5CCN(C)CC5)c(O)c4c3C2=O)NC(=O)/C(C)=C\C=C\[C@H](C)[C@H](O)[C@@H](C)[C@@H](O)[C@@H](C)[C@H](OC(C)=O)[C@@H]1C | 92-0492 (MDR) |  |  |  | MIC |  | >32 µg/mL
O=[N+]([O-])c1c(C=Nc2ccccc2)oc(-c2ccc3c(c2)OCO3)c1-c1ccc2c(c1)OCO2 | H37Rv |  | BACTEC |  | MIC bound |  | >12.5 µg/mL
CC(C)(C)c1ccc(COC(Cn2ccnc2)c2ccc(Cl)cc2)cc1 | CIP103471 |  |  |  | MIC |  | 1 µg/mL
COC(=O)[C@H]1[C@H](O)[C@H](C)[C@@H](O)[C@@H](C)/C=C(\C)C2=C3C(=C(C)C(=O)c4c(O)c(c(C)c(OC(C)=O)c43)NC(=O)/C(C)=C/C=C\[C@@H](C)C(O)[C@@H](C)[C@H]1O)OCO2 | TAC-R |  |  |  | MIC |  | 0.2 µg/mL
CCN(CCCCN1C(=O)C(=O)c2ccccc21)Cc1ccccc1 | H37Rv |  |  |  | MIC |  | ≤20 µg/mL
CO[C@H]1/C=C/O[C@@]2(C)Oc3c(C)c(O)c4c(O)c(cc(OCC(=O)NN)c4c3C2=O)NC(=O)/C(C)=C\C=C\[C@H](C)[C@H](O)[C@@H](C)[C@@H](O)[C@@H](C)[C@H](OC(C)=O)[C@@H]1C |  |  |  |  | EC50 |  | 0.15 µg/mL
O=C1C(=O)N(CCN2CCN(Cc3ccccc3)CC2)c2ccc(N3CCCCC3)cc21 | H37Ra |  |  |  | MIC |  | ≤20 µg/mL
Cc1ccc(C(Cn2ccnc2)OCc2ccc(C(C)(C)C)cc2)cc1 | CIP103471 |  |  |  | MIC |  | 1 µg/mL
COc1ccc(CCCCC(=O)/C=C/c2ccc(OC)c(Br)c2)cc1O | H37Rv |  | broth dilution |  | MIC |  | >200 µg/mL
COc1ccc(C2OC3=C(Nc4ccc([N+](=O)[O-])cc4N3)C2=O)cc1OC | H37Rv |  | BACTEC |  | inhibition | 12.5 µg/mL | -10%
C[C@@H]1CN(c2c(F)c(N)c3c(=O)c(C(=O)O)cn(C4CC4)c3c2F)C[C@H](C)N1 | 19 strains |  |  |  | MIC90 |  | >0.25 µg/mL
COc1ccc2cc1Oc1cc(ccc1OC)CC/C(=N\OCc1ccccc1)CCCC2 | H37Rv |  | broth dilution |  | MIC |  | >200 µg/mL
CO[C@H]1/C=C/O[C@@]2(C)Oc3c(C)c(O)c4c(O)c(c(/C=N/N5CCN(C6CCCC6)CC5)c(O)c4c3C2=O)NC(=O)/C(C)=C\C=C\[C@H](C)[C@H](O)[C@@H](C)[C@@H](O)[C@@H](C)[C@H](OC(C)=O)[C@@H]1C | H37Rv (streptomycin-resistant) |  |  |  | MIC |  | 2.5 µg/mL
C[C@]1(COc2ccc(N3CCC(Oc4ccc(OC(F)(F)F)cc4)CC3)cc2)Cn2cc([N+](=O)[O-])nc2O1 | UT29 |  |  |  | MIC |  | 0.024 µg/mL
CC1=C(O)C(=O)[C@H]2O[C@H]2C1=O | H37Rv |  | BACTEC |  | MIC |  | ≥12.5 µg/mL
CC1(C)CCc2c(c3ccccc3c3[nH]c(-c4ccccc4Br)nc23)O1 | ATCC 35338 |  | resazurin |  | MIC |  | 15.3 µg/mL
CCN(CC)C(=O)C1=C(C)NC(C)=C(C(=O)OC(C)C)C1c1ncc([N+](=O)[O-])n1C | H37Rv (ATCC 27294) |  |  |  | MIC |  | >0.5 µM
Cc1cc(S(=O)(=O)Nc2n[nH]c(Nc3ccccc3)n2)c(SSc2cc(Cl)c(C)cc2S(=O)(=O)Nc2n[nH]c(Nc3ccccc3)n2)cc1Cl | H37Rv |  | BACTEC |  | inhibition | 12.5 µg/mL | 2%
CCCCCCCCCCN1C(=O)C(=O)c2cccc(-c3ccccc3)c21 | H37Ra |  |  |  | MIC |  | ≤20 µg/mL
CCN(CC)C(=O)C1=C(C)NC(C)=C(C(=O)OC)C1c1ncc([N+](=O)[O-])n1C | H37Rv (ATCC 27294) |  |  |  | MIC |  | >0.5 µM
COc1ccccc1/C=C1/SC(=O)N(CCNC(C)=O)C1=O | H37Rv |  | BACTEC |  | inhibition | 12.5 µg/mL | 0%
O=C(O)/C=C/c1ccccc1 | 92-0492 (MDR) |  |  |  | MIC |  | 50 µg/mL
COc1cc(/C=N/NC(=O)c2nc3ncccc3n2C)ccc1O | H37Rv |  |  |  | MIC |  | 250 µg/mL
COC(=O)C(=O)C(C(=O)C=C(C)C)c1nc2n(c1O)C(=N)N=N2 | H37Rv |  | resazurin |  | inhibition | 6.25 µg/mL | 1%
CCN(CC)N(CC)C(=O)COc1cc2c(O)c3c(O)c(C)c4c(c13)C(=O)[C@@](C)(O/C=C/[C@H](OC)[C@@H](C)[C@@H](OC(C)=O)[C@H](C)[C@H](O)[C@H](C)[C@@H](O)[C@@H](C)/C=C/C=C(/C)C(=O)N2)O4 |  |  |  |  | EC50 |  | 0.15 µg/mL
CCN(CC)C(=O)C1=C(C)NC(C)=C(C(=O)OCCCCc2ccccc2)C1c1ncc([N+](=O)[O-])n1C | H37Rv (ATCC 27294) |  |  |  | MIC |  | 0.002 µM
CC(C)N=c1cc2n(-c3ccc(Cl)cc3)c3ccccc3nc-2cc1Nc1ccc(Cl)cc1 | 90-0201 (DRUG-SUS) |  |  |  | MIC |  | 0.2 µg/mL
C(=C\c1ccccc1)/COC(Cn1ccnc1)c1ccccc1 | CIP103471 |  |  |  | MIC |  | 4 µg/mL
O=C(NCc1ccc(N2CCN(Cc3ccccc3)CC2)cc1)c1ccc([N+](=O)[O-])o1 | UT29 |  |  |  | MIC |  | 0.024 µg/mL
O=C1C(=O)N(CCC2CCN(Cc3ccccc3)CC2)c2ccc(C3CCCCC3)cc21 | H37Rv |  |  |  | MIC |  | ≤20 µg/mL
Cn1c(C(=O)NN)nc2ncccc21 | H37Rv |  |  |  | MIC |  | 31 µg/mL
CCCCCCN1C(=O)C(=O)c2cccc(-c3ccccc3)c21 | H37Rv |  |  |  | MIC |  | ≤20 µg/mL
CC(=O)NC[C@H]1CN(c2ccc(N3CC4CC(=O)CC4C3)c(F)c2)C(=O)O1 | H37Rv |  | resazurin |  | MIC |  | 0.5 µg/mL
CC1COc2c(N3CCN(C)CC3)c(F)cc3c(=O)c(C(=O)O)cn1c23 | 08-211 |  | agar |  | MIC |  | 0.125 µg/mL
CCCOC(=O)C1=C(C)NC(C)=C(C(=O)N(CC)CC)C1c1ncc([N+](=O)[O-])n1C | H37Rv (ATCC 27294) |  |  |  | MIC |  | 0.002 µM
Cn1c(-c2nc3ccccc3s2)nc2ncccc21 | H37Rv |  |  |  | MIC |  | 25 µg/mL
CCn1cc(C(=O)O)c(=O)c2cc(F)c(N3CCNC(C)C3)c(F)c21 | H37Rv |  |  |  | MBC |  | 2 µg/mL
CCCN(C(=O)COc1cc2c(O)c3c(O)c(C)c4c(c13)C(=O)[C@@](C)(O/C=C/[C@H](OC)[C@@H](C)[C@@H](OC(C)=O)[C@H](C)[C@H](O)[C@H](C)[C@@H](O)[C@@H](C)/C=C/C=C(/C)C(=O)N2)O4)N1CCOCC1 |  |  |  |  | EC50 |  | 0.37 µg/mL
Nc1cc2nc3ccccc3oc-2cc1=O | H37Rv |  | BACTEC |  | MIC bound |  | ≤12.5 µg/mL
CON=C1CC2CN(c3ccc(N4C[C@H](CNC(C)=O)OC4=O)cc3F)CC2C1 | H37Rv |  | resazurin |  | MIC |  | 1 µg/mL
c1ccc2c(c1)Sc1ccccc1N2CCCN1c2ccccc2Sc2ccccc21 | H37Rv |  | BACTEC |  | inhibition | 12.5 µg/mL | 10%
CCCN(CCC)N(C)C(=O)COc1cc2c(O)c3c(O)c(C)c4c(c13)C(=O)[C@@](C)(O/C=C/[C@H](OC)[C@@H](C)[C@@H](OC(C)=O)[C@H](C)[C@H](O)[C@H](C)[C@@H](O)[C@@H](C)/C=C/C=C(/C)C(=O)N2)O4 |  |  |  |  | EC50 |  | 0.37 µg/mL
Cc1cccc(N=NC2Sc3nc4ccccc4n3C2=O)c1 | H37Rv |  | BACTEC |  | MIC |  | ≥12.8 µg/mL
NNC(=O)c1ccncc1 | ATCC 27294 |  | resazurin |  | MIC |  | <0.06 µg/mL
NC(=O)NC(=O)N/N=C/c1ccc([N+](=O)[O-])o1 | H37Rv |  | resazurin |  | MIC bound |  | >6.25 µg/mL
COc1cc(CCCCC(=O)/C=C/c2ccc(OC)c(Br)c2)ccc1O | H37Rv |  | broth dilution |  | MIC |  | >200 µg/mL
COc1ccc2c(c1)[n+]([O-])c(/C(C)=N/NC(=O)c1ccccc1O)c(C)[n+]2[O-] | EMB-R |  |  |  | MIC |  | 6.3 µg/mL
O=C1C(=O)N(CCN2CCN(Cc3ccccc3)CC2)c2c1cccc2C1CCCC1 | H37Ra |  |  |  | MIC |  | ≤20 µg/mL
CC1(C)CCC[C@]2(C)[C@H]3C=C4C=C(O)C(=O)C=C4O[C@@]3(C)CC[C@@H]12 | H37Rv |  | BACTEC |  | inhibition | 12.5 µg/mL | 97%
CCN(CC)C(=O)C1=C(C)NC(C)=C(C(=O)OCc2ccccc2)C1c1ncc([N+](=O)[O-])n1C | H37Rv (ATCC 27294) |  |  |  | MIC |  | 0.001 µM
Cn1cc(N)cc1C(=O)Nc1cc(C(=O)Nc2cc(S(=O)(=O)O)c3cc(S(=O)(=O)O)cc(S(=O)(=O)O)c3c2)n(C)c1 | H37Rv |  | BACTEC |  | inhibition | 12.5 µg/mL | 0%
CCCCN(C(=O)COc1cc2c(O)c3c(O)c(C)c4c(c13)C(=O)[C@@](C)(O/C=C/[C@H](OC)[C@@H](C)[C@@H](OC(C)=O)[C@H](C)[C@H](O)[C@H](C)[C@@H](O)[C@@H](C)/C=C/C=C(/C)C(=O)N2)O4)N1CCOCC1 |  |  |  |  | EC50 |  | 1.5 µg/mL
Cc1c(N=Nc2cccc(F)c2)c(-c2ccccc2)nn1C(=S)S | H37Rv |  | BACTEC |  | inhibition | 128 µg/mL | 100%
O=C(/C=C/C=C/c1ccc2c(c1)OCO2)N1CCCCC1 |  |  | PCR | clinical isolate | MIC |  | >100 µg/mL
CC1(C)N=c2cc3c(cc2N1c1ccc(Cl)cc1)=Nc1ccccc1N3c1ccc(Cl)cc1 | CS-R |  |  |  | MIC |  | 0.8 µg/mL
Cc1ccc2nc(-c3nc4ncccc4n3C)sc2c1 | H37Rv |  |  |  | MIC |  | 25 µg/mL
C[N+](C)(C)CC(=O)N/N=C(\Cc1nc2ccc([N+](=O)[O-])cc2[nH]c1=O)C(=O)Nc1nc2ccc([N+](=O)[O-])cc2s1.[Cl-] | H37Rv |  | BACTEC |  | inhibition | 12.5 µg/mL | 35%
COc1cc2ccc1Oc1cc(ccc1OC)CCCCC(=O)CC2 | H37Rv |  | broth dilution |  | MIC |  | >200 µg/mL
C/C(N)=C\C(=O)c1[nH]c(C(=O)O)cc1C1CCN(Cc2ccccc2)C1=O | H37Rv |  | resazurin |  | inhibition | 6.25 µg/mL | 24%
CCCCC[C@@H](C/C=C/CCC(=O)O)OC |  |  |  |  | inhibition | 6.25 µg/mL | 0%

Blank or dashed fields: not listed here. Percent inhibition refers to the dose given; in toxicity tests it is the harm to the cells. ECn: concentration that inhibits the pathogen or its effect by n%. Lines come from different laboratories, so protocols vary. MIC50, MIC90 and the like: level of inhibition, or share of isolates inhibited.